Measured values from several laboratories, pooled; numbers as filed in NIAID ChemDB.

All rows: whole-cell or culture tests; agent: Candida albicans; endpoint: EC50

ECn is the concentration giving n% inhibition of infection, replication or growth. Lines come from different laboratories, so protocols vary. An empty or dashed field is not shown.

smiles,setting,strain or isolate,value
CC(C)CCc1c(O)c(C=O)c(O)c(C=O)c1O,,,>20 µg/mL
C1CCC(C[C@H]2CN3C(=NC[C@@H]3C3CCCCC3)N2CCC23CC4CC(CC(C4)C2)C3)CC1,,ATCC 10231,38.8 µg/mL
CC(C)=CCC/C(C)=C/C(=O)O,,,>100 µg/mL
O=C1C(Nc2ccc([N+](=O)[O-])cc2)=C(S(=O)c2ccccc2)C(=O)c2ccccc21,,,>0.2 µg/mL
Cc1ccc(-n2cc(-c3ccc(Br)cc3)c(C(=O)O)c2C)cc1,,40 strains,>47.92 µg/mL
Cc1c(C(=O)N(CCO)CCO)cc(-c2ccc([N+](=O)[O-])cc2)n1-c1ccccc1Cl,,20 strains,>200 µg/mL
O=C(OCCCc1ccc(O)cc1)c1ccccc1,,,5.36 µg/mL
O=C(OCC1COC(Cn2ccnc2)(c2ccc(-c3ccccc3)cc2)O1)c1ccccc1,,44 strains,16 µg/mL
Cc1onc(-c2cccc(Br)c2)c1C=O,,,27.07 µg/mL
O=C1C[C@H](O)C2(Oc3cccc4cccc(c34)O2)c2cccc(O)c21,,,12.5 µg/mL
O=C/C=C/c1ccc(O)cc1,,KCTC 1940,60 µM
O=C1C(Sc2ccc(Br)cc2)=C(Sc2ccc(Br)cc2)C(=O)c2ccccc21,,,>0.2 µg/mL
CC(C)[C@@H]1CC=CC2C3[C@@](C)(C=CC(=O)[C@@]3(C)O)CC[C@@]21CBr,,ATCC 10231,>100 µM
C/C=C(/C)C(=O)Oc1ccc(OC)cc1C1OC1C,,ATCC 90028,>50 µg/mL
COc1cc(OC)c2c(c1)OC(c1ccccc1)CC2=O,,,>50 µg/mL
CCCCCCCCn1c(-c2ccc([N+](=O)[O-])cc2)cc(C(=O)N2CCN(C)CC2)c1C,,20 strains,>200 µg/mL
Cc1c(C(=O)O)c(-c2ccc(Br)cc2)cn1-c1ccc(F)cc1,,40 strains,>78.57 µg/mL
C[C@@H]1CCC2(OC1)OC1CC3C4C[C@H](O)[C@H]5C[C@@H](O)CC[C@]5(C)C4CC(=O)[C@]3(C)C1[C@@H]2C,,ATCC 90028,7 µg/mL
COc1cc2ccnc3c2c(c1OC(=O)c1ccc(F)c(F)c1)N(C)C=C3,,,>15 µg/mL
Cc1cc2c(c(O)c1-c1c(C)cc(O)c3c1C(=O)C=CC3=O)C(=O)CC[C@H]2O,,,>20 µg/mL
CCOc1ccc(SCC#CCN2CCCCC2)cc1,,CNCM 1180-79,78 µg/mL
O=Cc1cc(-c2ccc(Cl)cc2Cl)no1,,,24.91 µg/mL
CCCOc1ccc(SCC#CCN2CCOCC2)cc1,,CNCM 1180-79,78 µg/mL
COc1ccc(CCN2C3=NC[C@H](Cc4ccccc4)N3C[C@@H]2Cc2ccccc2)cc1OC,,ATCC 10231,>250 µg/mL
Cc1c(C(=O)N2CCN(C)CC2)cc(-c2ccc([N+](=O)[O-])cc2)n1-c1ccccc1Cl,,20 strains,>200 µg/mL
COc1ccc(CC(=O)c2ccc(OC)cc2)cc1,,28 strains,>256 µg/mL
CC(=O)c1c(O)cc(O)c(C(C)=O)c1O,,,>20 µg/mL
C1CCC(C[C@H]2CN3C(=NC[C@H]3C3CCCCC3)N2CCC23CC4CC(CC(C4)C2)C3)CC1,,ATCC 10231,2.4 µg/mL
NC[C@@H]1O[C@H](O[C@H]2[C@@H](O)[C@H](O[C@@H]3[C@@H](O)[C@H](N)C[C@H](N)[C@H]3O[C@H]3O[C@H](CN)[C@@H](O)[C@H](O)[C@H]3N)O[C@@H]2CO)[C@H](N)[C@@H](O)[C@@H]1O,,,1.1 µg/mL
COc1cc2ccnc3c2c(c1OC(=O)c1ccc(OC(F)(F)F)cc1)N(C)C=C3,,,>15 µg/mL
CC(C)[C@@H]1CC=CC2C3[C@](C)(O)[C@@H](O)C[C@H](Br)[C@@]3(C)CC[C@@]21CBr,,ATCC 10231,>100 µM
Cc1onc(-c2ccccc2Cl)c1C=O,,,>50 µg/mL
O/N=C1\CC(c2ccccc2)Oc2cc(O)cc(O)c21,,,48.98 µg/mL
COc1ccc(C(Cc2ccc(Cl)cc2)n2cncn2)cc1,,28 strains,<256 µg/mL
Nc1[nH]c(=O)ncc1F,,5208 strains,<0.25 µg/mL
CCC(c1ccc(Cl)cc1)C(c1ccc(OC)cc1)n1ccnc1,,28 strains,<256 µg/mL
CCCCCCCC/C=C/CCCCCCCCC(=O)Oc1c(OC)cc2ccnc3c2c1N(C)C=C3,,,>15 µg/mL
COc1ccc(Sc2c(S(=O)c3ccccc3)c(O)c3ccccc3c2O)cc1,,,>0.2 µg/mL
CC(=O)OCC1C=C(c2ccc(Br)cc2)C(=O)O1,,ATCC 90028,<10 µg/mL
Cc1cnc(Nc2ccccc2Cl)nc1Nc1ccccc1Cl,,,2.6 µg/mL
Cc1c(C(=O)N(CCO)CCO)cc(-c2ccc([N+](=O)[O-])cc2)n1Cc1ccc(Cl)cc1,,20 strains,>200 µg/mL
COc1cc2ccnc3c2c(c1O)N(C)C=C3,,,>15 µg/mL
O=C(OC[C@H]1CO[C@](Cn2ccnc2)(c2ccc(-c3ccccc3)cc2)O1)c1ccccc1,,44 strains,16 µg/mL
CC(C)=CCc1c(O)c(C=O)c(O)c(C(=O)/C(C)=C/O)c1O,,,>20 µg/mL
Cc1cnc(Nc2cccc(Cl)c2)nc1Nc1cccc(Cl)c1,,,1.06 µg/mL
COc1cc2ccnc3c2c(c1OC(=O)CSc1ccccc1)N(C)C=C3,,,>15 µg/mL
CC(C)(C)C1CCC(CN2C3=NC[C@H](CC4CCCCC4)N3C[C@@H]2C2CCCCC2)CC1,,ATCC 10231,7.3 µg/mL
OC[C@H]1CO[C@](Cn2ccnc2)(c2ccc(-c3ccccc3)cc2)O1,,44 strains,32 µg/mL
Cc1c(C(=O)O)c(-c2ccc(Cl)cc2)cn1-c1ccc(Cl)cc1,,40 strains,>24.9 µg/mL
COc1cc2ccnc3c2c(c1OC(=O)c1ccc(CCl)cc1)N(C)C=C3,,,>15 µg/mL
Cc1onc(-c2ccc(Cl)cc2)c1C=O,,,34.87 µg/mL
NC1C2CC3CC(C2)CC1C3,biofilm,,5 µM
COc1cccc(C=[NH+]CC(=O)[N-]CC(=O)[O-])c1[O-].O.O.O.[K+],,,<200 µg/mL
CCCCOc1ccc(SCC#CI)cc1,,CNCM 1180-79,<78 µg/mL
O=C1C(Nc2ccccc2)=C(S(=O)c2ccccc2)C(=O)c2ccccc21,,,>0.2 µg/mL
CCCOc1ccc(SCC#CCN2CCCCC2)cc1,,CNCM 1180-79,78 µg/mL
CCC(c1ccc(OC)cc1)C(c1ccc(OC)cc1)n1ccnc1,,28 strains,<256 µg/mL
Cc1c(C(=O)O)c(-c2ccc(F)cc2)cn1-c1ccc(Cl)cc1,,40 strains,>26.04 µg/mL
COc1ccc(C(O)C(Cc2ccc(Cl)cc2Cl)c2ccc(Cl)cc2)cc1,,28 strains,>256 µg/mL
CCCCOc1ccc(SCC#CCN2CCCCC2)cc1,,CNCM 1180-79,87 µg/mL
CC[C@@H](c1ccc(Cl)cc1)[C@@H](c1ccc(OC)cc1)n1cnnc1,,28 strains,<256 µg/mL
Cc1ccc(SC2=C(Sc3ccc(C)cc3)C(=O)c3ccccc3C2=O)cc1,,,>0.2 µg/mL
O=C1CC(c2ccccc2)Oc2cc(O)cc(O)c21,,,>50 µg/mL
COc1ccc(C(=O)C(Cc2ccc(Cl)cc2Cl)c2ccc(Cl)cc2)cc1,,28 strains,<256 µg/mL

The first 5 rows once more:

{"smiles": "CC(C)CCc1c(O)c(C=O)c(O)c(C=O)c1O", "value": ">20 µg/mL"}
{"smiles": "C1CCC(C[C@H]2CN3C(=NC[C@@H]3C3CCCCC3)N2CCC23CC4CC(CC(C4)C2)C3)CC1", "strain or isolate": "ATCC 10231", "value": "38.8 µg/mL"}
{"smiles": "CC(C)=CCC/C(C)=C/C(=O)O", "value": ">100 µg/mL"}
{"smiles": "O=C1C(Nc2ccc([N+](=O)[O-])cc2)=C(S(=O)c2ccccc2)C(=O)c2ccccc21", "value": ">0.2 µg/mL"}
{"smiles": "Cc1ccc(-n2cc(-c3ccc(Br)cc3)c(C(=O)O)c2C)cc1", "strain or isolate": "40 strains", "value": ">47.92 µg/mL"}